Results of unrelated studies side by side (data: NIAID ChemDB).

Shared fields: tests in culture

A number after MIC or MFC names an inhibition level or a share of isolates. Inhibition is in % at the dose shown (toxicity tests: loss of growth or viability). ECn is the concentration giving n% inhibition of infection, replication or growth. Blank or dashed fields: not listed here. Rows are shuffled and stem from different studies.

smiles,organism,method,read-out,strain,dose,result
C[C@@H](c1nc(-c2ccc(C#N)cc2)cs1)[C@](O)(Cn1cncn1)c1cc(F)ccc1F,Cryptococcus gattii,broth dilution,MIC50,,,0.063 µg/mL
COc1cc(/C=C2\Oc3cc(O)cc(O[C@@H]4O[C@H](CO)[C@@H](O)[C@H](O)[C@H]4O)c3C2=O)cc(OC)c1OC(C)=O,Cryptosporidium parvum,,EC50,,,>50 µM
Cc1cccc2c1C(=O)c1cnn(C)c1C2=O,Cryptosporidium parvum,,inhibition,,10 µM,<10%
O=C1/C(=C/c2ccc(O)cc2O)Oc2cc(O)ccc21,Cryptosporidium parvum,,inhibition,,25 µM,90%
Cc1cc(O)c2c(c1Cl)C(=O)c1cn[nH]c1C2=O,Cryptosporidium parvum,,inhibition,,10 µM,<10%
COc1cc(/C=C2\Oc3cc(O)cc(O)c3C2=O)cc(OC)c1O,Cryptosporidium parvum,,inhibition,,50 µM,94%
Oc1ccc(O)c(C=Nc2ccccc2O)c1,Cryptococcus neoformans,broth dilution,MIC,ATCC 62066,,2.8 µg/mL
Cn1cc2c(n1)C(=O)c1cc3ccccc3c(O)c1C2=O,Cryptosporidium parvum,,inhibition,,25 µM,<10%
NCCCC[C@H](NC(=O)[C@H](CCCN=C(N)N)NC(=O)[C@H](CCCN=C(N)N)NC(=O)[C@H](CCCCN)NC(=O)[C@H](CCCCN)NC(=O)[C@@H](N)CCCCN)C(=O)N[C@@H](CCCN=C(N)N)C(=O)O,Cryptococcus neoformans,,inhibition,ATCC 32264,25 µM,10%
CCOC(=O)c1c(C)nc(NCCCCNc2ccnc3cc(Cl)ccc23)nc1-c1ccccc1[N+](=O)[O-],Cryptococcus gattii,,MIC99,L-28/02,,8 µg/mL
Cn1ncc2c1C(=O)c1cccc(Br)c1C2=O,Cryptosporidium parvum,,inhibition,,25 µM,42%
Oc1ccccc1C=Nc1ccccc1O,Cryptococcus neoformans,broth dilution,MIC,ATCC 28957,,4 µg/mL
CC(=O)OC[C@H]1O[C@@H](O[C@@H]2[C@@H](N=[N+]=[N-])[C@H](O)[C@H](O)[C@H]3OC(C)(C)O[C@H]32)[C@H](OC(C)=O)[C@@H](OC(C)=O)[C@H]1OC(C)=O,Cryptococcus neoformans,broth dilution / turbidity,inhibition,ATCC 32264,7.8 µg/mL,0%
Cc1ccc2c(c1)C(=O)c1c(cnn1C)C2=O,Cryptosporidium parvum,,inhibition,,25 µM,34%
Cc1nc(NCCCCNc2ccnc3cc(Cl)ccc23)nc(-c2ccccc2)c1C(=O)OC(C)C,Cryptococcus gattii,,MIC99,LMM 818,,11.3 µg/mL
C[C@@H](c1ncncc1F)[C@](O)(Cn1cncn1)c1ccc(F)cc1F,Cryptococcus gattii,broth dilution,MIC,CBS 10090,,0.5 µg/mL
COc1cc(/C=C2\Oc3cc(O)cc(O[C@@H]4O[C@H](CO)[C@@H](O)[C@H](O)[C@H]4O)c3C2=O)cc(OC)c1O,Cryptosporidium parvum,,inhibition,,10 µM,0%
Oc1ccccc1N=Cc1cccc(O)c1O,Cryptococcus gattii,,MIC99,L 27/01,,11.3 µg/mL
C=C/C=C/c1cc(OC)cc(=O)o1,Cryptosporidium parvum,,inhibition,,50 µM,98%
Cc1nc(NCCCCNc2ccnc3cc(Cl)ccc23)nc(-c2ccccc2[N+](=O)[O-])c1C(=O)OC(C)C,Cryptococcus gattii,,MIC99,1913 ER,,8 µg/mL
COc1cc(C)cc2c1C(=O)c1cnn(C)c1C2=O,Cryptosporidium parvum,,inhibition,,25 µM,<10%
O=[N+]([O-])c1ccc(C=Nc2ccccc2O)cc1,Cryptococcus gattii,,MIC99,L-28/02,,16 µg/mL
NC[C@@H]1O[C@H](O[C@H]2[C@@H](O)[C@H](O[C@@H]3[C@@H](O)[C@H](N)C[C@H](N)[C@H]3O[C@H]3O[C@H](CO)[C@@H](O)[C@H](O)[C@H]3N)O[C@@H]2CO)[C@H](N)[C@@H](O)[C@@H]1O,Cryptosporidium parvum,,inhibition,,100 µM,40%

Repeating the first 2 entries:

smiles | organism | method | read-out | strain | dose | result
C[C@@H](c1nc(-c2ccc(C#N)cc2)cs1)[C@](O)(Cn1cncn1)c1cc(F)ccc1F | Cryptococcus gattii | broth dilution | MIC50 |  |  | 0.063 µg/mL
COc1cc(/C=C2\Oc3cc(O)cc(O[C@@H]4O[C@H](CO)[C@@H](O)[C@H](O)[C@H]4O)c3C2=O)cc(OC)c1OC(C)=O | Cryptosporidium parvum |  | EC50 |  |  | >50 µM